# In PubChem BioAssay AID1650 (Southern Research Specialized Biocontainment Screening …, 2009):
# The list shows a part of the results, in another mix than the full data. Entries with a potency or affinity are not part of this list. The source made the active and inactive calls. No rule for the calls is given here.
# Assay: mammalian cell viability reduction – secondary assay, cytotoxicity control for West Nile virus antiviral project, dose response (AID 1650)
# Settings: Mammalian host cell viability, cytotoxicity counter-screen; at 10 µM (top of the series)
smiles,measurement,value
CCC1=CC2Cc3nc4ccc(Cl)cc4c(N)c3C(C1)C2 (stereo unspecified),viability,inactive: 74.4%
